Columns and labels:
[1] = biological target: T1, Fusarium oxysporum lipase (FoL), wild type (Fusarium oxysporum); experiment: cell-based or functional assay
T1 chain: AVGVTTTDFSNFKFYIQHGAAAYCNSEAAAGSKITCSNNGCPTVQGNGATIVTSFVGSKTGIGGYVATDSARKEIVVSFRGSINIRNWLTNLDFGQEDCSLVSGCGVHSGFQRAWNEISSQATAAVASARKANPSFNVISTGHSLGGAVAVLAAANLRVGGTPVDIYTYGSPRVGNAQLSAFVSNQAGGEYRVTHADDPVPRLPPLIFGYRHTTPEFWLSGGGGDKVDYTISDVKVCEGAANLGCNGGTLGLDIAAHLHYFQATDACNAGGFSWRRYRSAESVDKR

[2] = biological target: T2, Fusarium oxysporum lipase (FoL) variant I207E (Fusarium oxysporum); experiment: cell-based or functional assay
T2 chain: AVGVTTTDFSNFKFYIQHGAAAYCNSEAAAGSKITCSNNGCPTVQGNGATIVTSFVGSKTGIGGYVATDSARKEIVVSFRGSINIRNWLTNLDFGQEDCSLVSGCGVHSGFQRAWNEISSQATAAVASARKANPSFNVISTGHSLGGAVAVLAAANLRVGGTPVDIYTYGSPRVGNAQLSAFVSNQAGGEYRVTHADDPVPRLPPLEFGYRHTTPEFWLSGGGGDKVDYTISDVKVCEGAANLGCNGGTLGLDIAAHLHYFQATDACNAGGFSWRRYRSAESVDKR

ATMTDAELTKKLNSYVQMDKEYVKNNQARS (modifications not checked) [Peptide P2 (E295T)]
IC50 (half maximal inhibitory concentration; p-NP butyrate hydrolysis) (peptide/lipase ratio) [1]: > 1000 | IC50 (half maximal inhibitory concentration; p-NP butyrate hydrolysis) (peptide/lipase ratio) [2]: 782

ATMTDAELEKRLNSYVQMDKEYVKNNQARS (modifications not checked) [Peptide P3 (K297R)]
IC50 (half maximal inhibitory concentration; p-NP butyrate hydrolysis) (peptide/lipase ratio) [1]: 1560 | IC50 (half maximal inhibitory concentration; p-NP butyrate hydrolysis) (peptide/lipase ratio) [2]: 301

ATMTEAELEKKLNSYVQMDKEYVKNNQARS (modifications not checked) [Peptide P1 (D291E)]
IC50 (half maximal inhibitory concentration; p-NP butyrate hydrolysis) (peptide/lipase ratio) [2]: 1010

ATMTDAELEKKLNSYVQMDKEEVKNNQARS (modifications not checked) [Peptide P4 (Y308E)]
IC50 (half maximal inhibitory concentration; p-NP butyrate hydrolysis) (peptide/lipase ratio) [2]: > 1000

— patent publication US20090275083A1, “Isolated peptides having phospholipase inhibitory activity” (published 2009)
